Measured values from several laboratories, pooled; numbers as filed in NIAID ChemDB.

All rows: whole-cell or culture tests; agent: Rhinovirus

Lines come from different laboratories, so protocols vary. ECn is the concentration giving n% inhibition of infection, replication or growth. Inhibition is in % at the dose shown (toxicity tests: loss of growth or viability). MIC50, MIC90 and the like: level of inhibition, or share of isolates inhibited.

CCOC(=O)/C=C/[C@H](C[C@@H]1CCNC1=O)NC(=O)[C@@H](CC(=O)[C@@H](NC(=O)c1cc(C)on1)C(C)C)Cc1ccc(F)cc1 ; read by: cytopathic effect / visual reading ; strain or isolate: Isolate 6 ; measure: EC50 ; cell line: OHIO HELA-I ; result: 0.02 µg/mL
CN(C)c1nc(C(F)(F)F)nc2c1ncn2Cc1ccc(Cl)cc1Cl ; read by: plaque count ; strain or isolate: Serotype 14 ; measure: inhibition ; dose: 8 µM ; cell line: M-HELA ; result: 35%
NCCS(=O)(=O)O ; read by: cytopathic effect ; measure: inhibition ; dose: 10 µg/mL ; cell line: Human embryonic lung cells ; result: 10%
Cc1cc(CCCCCOc2c(Cl)cc(C3=NCCO3)cc2Cl)on1 ; read by: plaque count ; strain or isolate: TYPE 41 ; measure: EC50 ; cell line: HeLa ; result: 0.41 µg/mL
Cc1cc(CCCCCOc2cc(Cl)c(-c3nnc(C)o3)c(Cl)c2)on1 ; strain or isolate: Serotype 6 ; measure: MIC80 ; result: 0.46 µg/mL
O=S(=O)(O)c1ccc(N=Nc2c(O)ccc3cc(S(=O)(=O)O)ccc23)cc1 ; read by: cytopathic effect ; measure: inhibition ; dose: 50 µg/mL ; cell line: Human embryonic lung cells ; result: 10%
Cc1cc(CCCCCOc2cc(Cl)c(-c3nnco3)c(Cl)c2)on1 ; strain or isolate: Serotype 22 ; measure: MIC80 ; result: 0.45 µg/mL
CN(C)c1nc(C(F)(F)F)nc2c1ncn2Cc1ccc(Cl)c(NC=O)c1 ; read by: plaque count ; strain or isolate: Serotype 13 ; measure: inhibition ; dose: 8 µM ; cell line: M-HELA ; result: 43%
Fc1cccc(Cn2cnc3c(Nc4cccc(F)c4)nc(C(F)(F)F)nc32)c1 ; read by: plaque count ; strain or isolate: Serotype 22 ; measure: EC50 ; cell line: M-HELA ; result: 2.3 µM
Cc1ccccc1Cn1cnc2c(N(C)C)nc(C(F)(F)F)nc21 ; read by: plaque count ; strain or isolate: Serotype 19 ; measure: inhibition ; dose: 8 µM ; cell line: M-HELA ; result: 19%
Nc1ccc(Cn2cnc3c(Nc4cccc(F)c4)nc(C(F)(F)F)nc32)cc1 ; read by: plaque count ; strain or isolate: Serotype 1B ; measure: EC50 ; cell line: M-HELA ; result: 0.4 µM
CN(C)c1nc(C(F)(F)F)nc2c1ncn2Cc1ccc(S(C)(=O)=O)cc1 ; read by: plaque count ; strain or isolate: Serotype 30 ; measure: EC50 ; cell line: M-HELA ; result: >8 µM
Nc1ccc(S(=O)(=O)[O-])c2c(S(=O)(=O)[O-])ccc(O)c12 ; read by: cytopathic effect ; measure: inhibition ; dose: 5 µg/mL ; cell line: Human embryonic lung cells ; result: 60%
Cc1ccc(Cn2cnc3c(N(C)C)nc(C(F)(F)F)nc32)cc1 ; read by: plaque count ; strain or isolate: Serotype 4 ; measure: inhibition ; dose: 2.5 µM ; cell line: M-HELA ; result: 41%
CCOC(=O)c1ccc(OCCC2CCN(c3ccc(C)nn3)CC2)cc1 ; read by: neutral red ; strain or isolate: 1963M-CV40 (LDL receptor group 62) ; measure: EC50 ; cell line: KB ; result: 0.049 µM
Nc1ccc2cc([N+](=O)[O-])cc(S(=O)(=O)[O-])c2c1 ; read by: cytopathic effect ; measure: inhibition ; dose: 10 µg/mL ; cell line: Human embryonic lung cells ; result: 60%